Anti-infective test results gathered from many reports (values: NIAID ChemDB through PubChem).

Shared fields: growth or infection tests; agent: Human cytomegalovirus

Conditions beyond the fields shown may differ between rows. Blank or dashed fields: not listed here. ECn: concentration that inhibits the pathogen or its effect by n%.

NC1=NCCN1CC(=O)O ; read-out: EC50 ; strain or isolate: C8708 ; cell line: MRC-5 ; read by: plaque count ; result: 9800 µM
Cc1ccc(S(=O)(=O)NNC(=O)c2ccccc2S(=O)(=O)NC(C)C)cc1 ; read-out: EC50 ; strain or isolate: AD169 ; cell line: HEL ; read by: plaque count ; result: >100 µM
Nc1nc2c(ncn2CCC(CO)CO)c(=O)[nH]1 ; read-out: EC50 ; strain or isolate: AD169 ; cell line: MRC-5 ; read by: plaque count ; result: 45 µg/mL
CCCCc1ccc2cc(-c3ccccc3)cn2c1 ; read-out: EC50 ; strain or isolate: AD169 ; cell line: MRC-5 ; read by: plaque count ; result: >100 µM
CC#Cc1cn([C@@H]2O[C@H](CO)[C@@H](O)[C@@H]2O)c(=O)[nH]c1=O ; read-out: EC50 ; cell line: VERO ; read by: plaque count ; result: >100 µM
CC(N)c1cn([C@H]2C[C@H](O)[C@@H](CO)O2)c(=O)[nH]c1=O ; read-out: EC50 ; strain or isolate: AD169 ; cell line: HFF ; read by: cytopathic effect ; result: 5.9 µM
Cc1cn([C@H]2S[C@@H](CO)C[C@@H]2N=[N+]=[N-])c(=O)[nH]c1=O ; read-out: EC50 ; result: <100 µg/mL
C=CCOc1nc(N)nc2c1ncn2/C=C1/C[C@@H]1CO ; read-out: EC50 ; cell line: HFF ; read by: plaque count ; result: 2.1 µM
O=c1[nH]c(=S)n([C@@H]2O[C@H](CO)[C@@H](O)[C@@H]2O)cc1/C=C/c1ccccc1 ; read-out: EC50 ; strain or isolate: 93-1R ; cell line: MRC-5 ; read by: plaque count ; result: >213 µM
Nc1nc(OCC2CC2)c2ncn(/C=C3/C[C@@H]3CO)c2n1 ; read-out: EC50 ; cell line: HFF ; read by: plaque count ; result: 1.7 µM
CC(C)NS(=O)(=O)c1ccccc1C(=O)N/N=C/c1ccccc1 ; read-out: EC50 ; strain or isolate: AD169 ; cell line: HEL ; read by: plaque count ; result: >100 µM
Nc1nc2c(ncn2COC(CO)CO)c(=O)[nH]1 ; read-out: EC50 ; strain or isolate: DAVIS ; cell line: HFF ; read by: virus yield ; result: 0.7 µM
Cc1cccn2c(C3OCCS3)cnc12 ; read-out: EC50 ; strain or isolate: DAVIS ; cell line: HEL ; result: 63 µM
CCc1cn([C@H]2C[C@H](O)[C@@H](CO)O2)c(=O)[nH]c1=O ; read-out: EC50 ; strain or isolate: AD169 ; cell line: HFF ; read by: cytopathic effect ; result: >170 µM
Nc1ccn(C[C@@H](CO)OCP(=O)(O)O)c(=O)n1 ; read-out: EC50 ; strain or isolate: AD169 ; cell line: HEL ; read by: plaque count ; result: 1.4 µM
Nc1ncnc2c1ncn2[C@@H]1C=C(CO)[C@@H](O)[C@H]1O ; read-out: EC50 ; strain or isolate: AD169 ; cell line: HEL ; read by: plaque count ; result: 0.53 µg/mL
CSc1nnc(-c2ccccc2S(=O)(=O)NC(C)C)o1 ; read-out: EC50 ; strain or isolate: AD169 ; cell line: HEL ; read by: plaque count ; result: >100 µM
Brc1ccc2cc(-c3ccccc3)cn2c1 ; read-out: EC50 ; strain or isolate: AD169 ; cell line: MRC-5 ; read by: plaque count ; result: >100 µM
Cc1cccn2c(C3OCCO3)cnc12 ; read-out: EC50 ; strain or isolate: AD169 ; cell line: HEL ; result: >116 µM
FC(F)(F)Oc1ccc(-c2cc3ccccn3c2)cc1 ; read-out: EC50 ; strain or isolate: AD169 ; cell line: MRC-5 ; read by: plaque count ; result: >100 µM
Cc1cccn2c(C3SCCS3)cnc12 ; read-out: EC50 ; strain or isolate: AD169 ; cell line: HEL ; result: 17 µM
c1ccn2cc(-c3ccoc3)cc2c1 ; read-out: EC50 ; strain or isolate: AD169 ; cell line: MRC-5 ; read by: plaque count ; result: 50 µM
[N-]=[N+]=N[C@H]1C[C@H](CO)SC1n1cnc2c(N)ncnc21 ; read-out: EC50 ; result: <100 µg/mL
COc1cc(OC)c(NC(=S)Nc2ccc(NC(C)=O)cc2)cc1Cl ; read-out: EC50 ; strain or isolate: 50 isolates ; read by: plaque count ; result: 0.166 µM
C=Cc1cn([C@@H]2O[C@H](CO)[C@@H](O)[C@@H]2O)c(=S)nc1N ; read-out: EC50 ; strain or isolate: AD169 ; cell line: MRC-5 ; read by: plaque count ; result: >266.3 µM
Brc1sccc1-c1cc2ccccn2c1 ; read-out: EC50 ; strain or isolate: AD169 ; cell line: MRC-5 ; read by: plaque count ; result: >100 µM
CCOP(=O)(O)CCC(CO)OCn1cnc2c(=O)[nH]c(N)nc21 ; read-out: EC50 ; strain or isolate: EC (ganciclovir-susceptible) ; cell line: MRC-5 ; read by: plaque count ; result: 8 µg/mL
Cn1cc(C(=O)NCc2ccc(Cl)cc2)c(=O)c2cc(CN3CCOCC3)ccc21 ; read-out: EC50 ; strain or isolate: DAVIS ; cell line: HFF ; read by: cytopathic effect ; result: 2.4 µM
O=C(O)c1cccn2cc(-c3ccccc3)cc12 ; read-out: EC50 ; strain or isolate: AD169 ; cell line: MRC-5 ; read by: plaque count ; result: >100 µM
Nc1ccn(C[C@@H](CO)OCP(=O)(O)O)c(=O)n1 ; read-out: EC50 ; strain or isolate: DAVIS ; cell line: HEL ; read by: cytopathic effect ; result: 0.21 µM
COc1cc(O)c(Cl)cc1NC(=S)Nc1ccc(NC(=O)c2csnn2)cc1 ; read-out: EC50 ; result: 0.021 µM
Nc1nc2c(ncn2C=C2CC2CO)c(=O)[nH]1 ; read-out: EC90 ; strain or isolate: VR5120 (ganciclovir-resistant) ; read by: plaque count ; result: 4.8 µM
CCCCCCCC/C=C/CCCCCCCC(=O)OCC(CO)OCn1cnc2c(=O)[nH]c(N)nc21 ; read-out: EC50 ; strain or isolate: AD169 ; cell line: HEL ; read by: cytopathic effect ; result: 4.5 µM
Nc1nc(NCC2CC2)c2ncn(/C=C3/C[C@@H]3CO)c2n1 ; read-out: EC50 ; cell line: HFF ; read by: plaque count ; result: 52 µM
COc1cc(OC)c(NC(=S)Nc2ccc(NC(=O)c3ccco3)cc2)cc1Cl ; read-out: EC50 ; strain or isolate: 16 isolates ; read by: virus yield ; result: <0.15 µM
CCCCCCCC/C=C/CCCCCCCC(=O)O ; read-out: EC50 ; strain or isolate: DAVIS ; cell line: HEL ; read by: cytopathic effect ; result: >100 µM
CC(C)NS(=O)(=O)c1ccccc1C(=O)N/N=C/c1ccc(Br)cc1 ; read-out: EC50 ; strain or isolate: AD169 ; cell line: HEL ; read by: plaque count ; result: >100 µM
[N-]=[N+]=N[C@@H]1C[C@@H](CO)S[C@H]1n1cnc2c(Cl)ncnc21 ; read-out: EC50 ; result: <100 µg/mL
OC[C@H]1O[C@@H](n2c(Cl)nc3cc(Cl)c(Cl)cc32)[C@H](O)[C@@H]1O ; read-out: EC95 ; strain or isolate: C4 (D341E) ; read by: virus yield ; result: 25 µM
Cc1cn([C@H]2C[C@H](O)[C@@H](CO)O2)c(=S)nc1N ; read-out: EC50 ; strain or isolate: 93-1R ; cell line: MRC-5 ; read by: plaque count ; result: >277.4 µM
[N-]=[N+]=N[C@H]1C[C@H](CO)S[C@H]1n1ccc(=O)[nH]c1=O ; read-out: EC50 ; result: <100 µg/mL
c1ccn2cc(-c3cncs3)cc2c1 ; read-out: EC50 ; strain or isolate: AD169 ; cell line: MRC-5 ; read by: plaque count ; result: >100 µM
C/C(=N/Nc1nc(-c2ccccc2)cs1)c1ccc(NC(=O)CN2C(=O)c3ccccc3S2(=O)=O)cc1 ; read-out: EC50 ; strain or isolate: AD169 ; cell line: HEL ; read by: plaque count ; result: 20 µM
O=C(NCc1ccc(Cl)cc1)c1c[nH]c2c(F)cccc2c1=O ; read-out: EC90 ; strain or isolate: DAVIS ; read by: virus yield ; result: >50 µM
c1ccc(-c2cc3c4ccccc4ccn3c2)cc1 ; read-out: EC50 ; strain or isolate: AD169 ; cell line: MRC-5 ; read by: plaque count ; result: >100 µM
O=C(O)/C=C/c1cn([C@@H]2O[C@H](CO)[C@@H](O)[C@@H]2O)c(=S)[nH]c1=O ; read-out: EC50 ; strain or isolate: T-137 ; cell line: MRC-5 ; read by: plaque count ; result: >213 µM
O=C(NCc1ccc(Cl)cc1)c1c[nH]c2ccc(CCCO)cc2c1=O ; read-out: EC50 ; strain or isolate: 759rD100 ; read by: plaque count ; result: 0.3 µM
CCc1cn([C@H]2C[C@H](O)[C@@H](CO)O2)c(=S)nc1N ; read-out: EC50 ; strain or isolate: 93-1R ; cell line: MRC-5 ; read by: plaque count ; result: >277.4 µM
C#CCNc1nc(N)nc2c1ncn2/C=C1/C[C@@H]1CO ; read-out: EC50 ; cell line: HFF ; read by: plaque count ; result: 2.6 µM

3 of the rows above, restated:

structure | read-out | strain or isolate | cell line | read by | result
OC[C@H]1O[C@@H](n2c(Cl)nc3cc(Cl)c(Cl)cc32)[C@H](O)[C@@H]1O | EC95 | C4 (D341E) |  | virus yield | 25 µM
Nc1nc(NCC2CC2)c2ncn(/C=C3/C[C@@H]3CO)c2n1 | EC50 |  | HFF | plaque count | 52 µM
NC1=NCCN1CC(=O)O | EC50 | C8708 | MRC-5 | plaque count | 9800 µM